## Mutational scan of HIV-1 Vif (1203) in cells with APOBEC3G

Values reported by Langley et al. 2025, preprint (doi:10.1101/2025.10.20.683452).

Scanned stretch, residues 12 to 115 of Vif from HIV-1 1203 (a subtype B primary isolate):
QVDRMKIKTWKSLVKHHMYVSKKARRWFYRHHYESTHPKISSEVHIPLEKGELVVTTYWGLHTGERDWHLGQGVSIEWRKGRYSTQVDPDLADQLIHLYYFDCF

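A pool of vif mutants was passaged twice, 72 h each, on SupT1 cells that express APOBEC3G. Each of three replicates was sequenced after round two and set against the merged round-one pool. Changes do not touch integrase, since the pol overlap was removed.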

The score is log2 enrichment against the wild-type codon: higher is better tolerated, lower is depleted. A change reads original residue, position, new residue. All changes here are to cysteine. The median of three replicates is given. Input reads are the counts in the merged round-one pool, before selection. The scan is noisy: the rank correlation of replicates is about 0.4 to 0.65, and variants with under about 50 input reads tend to read too high. Positive scores are uncertain; some enriched variants did not exclude APOBEC3G in a separate test. Some changes are missing from the data or left out.

For Q12C (input reads 240) the result was 1.45.
For M16C (input reads 18) the result was 0.83.
For K17C (input reads 1253) the result was -2.02.
For K22C (input reads 27) the result was 1.26.
For L24C (input reads 193) the result was -1.24.
For V25C (input reads 178) the result was 0.03.
For K26C (input reads 179) the result was -1.99.
For H28C (input reads 315) the result was 1.31.
For Y30C (input reads 169) the result was 1.55.
For W38C (input reads 26) the result was 0.02.
For R41C (input reads 184) the result was 1.37.
For H42C (input reads 171) the result was 1.90.
For H43C (input reads 17) the result was -1.07.
For Y44C (input reads 34) the result was -0.59.
For P49C (input reads 41) the result was 0.50.
For S52C (input reads 350) the result was -2.22.
For E54C (input reads 21) the result was 1.09.
For I57C (input reads 232) the result was -2.36.
For P58C (input reads 212) the result was -1.87.
For L59C (input reads 175) the result was -1.14.
For E63C (input reads 144) the result was -1.70.
For T68C (input reads 83) the result was 3.80.
For L72C (input reads 481) the result was -2.23.
For W79C (input reads 68) the result was 0.61.
For G82C (input reads 213) the result was -1.51.
For Q83C (input reads 212) the result was -1.76.
For S86C (input reads 49) the result was -1.42.
For I87C (input reads 228) the result was -2.18.
For W89C (input reads 909) the result was -1.58.
For S95C (input reads 22) the result was -0.11.
For D101C (input reads 578) the result was -2.94.
For A103C (input reads 450) the result was -2.62.
For D104C (input reads 413) the result was 1.20.
For H108C (input reads 108) the result was -3.76.
For Y111C (input reads 87) the result was -2.72.
For F112C (input reads 28) the result was 0.81.
For D113C (input reads 2240) the result was -2.65.

The opening 3 entries, copied out:

substitution,input reads,median score
Q12C,240,1.45
M16C,18,0.83
K17C,1253,-2.02